# In paper PMC8919384 (ACS Medicinal Chemistry Letters, 2022):
# System: OGD/R-treated HT22 cells
# Settings: 1–10 μM pretreatment 4 h
compound,measurement,value
Cn1cc(-c2cnc(N)n3nc(-c4ccco4)nc23)ccc1=O [1a],"inflammation modulators iNOS, COX-2 and VCAM-1 (western blot)",significantly inhibited
